This assay has as its system P. falciparum W2 (CQ-resistant) strain. The assay is described as follows: P. falciparum drug susceptibility assay (pLDH), W2 strain. The following applies: RI = IC50 CQ resistant P. falciparum strain/IC50 CQ sensitive P. falciparum strain. Format: cell-based, Plasmodium falciparum. As for the experimental part: Plasmodium falciparum cultures were carried out according to Trager and Jensen, with slight modifications. The CQ-susceptible strain D10 and the CQ-resistant strain W2 were maintained at 5% hematocrit (human type A-positive red blood cells) in RPMI 1640 (EuroClone, Milan, Italy) medium with the addition of 1% AlbuMax (Invitrogen, Milan, Italy), 0.01% hypoxanthine, 20 mM Hepes, and 2 mM glutamine. All the cultures were maintained at 37 °C in a standard gas mixture consisting of 1% O2, 5% CO2, and 94% N2. Compounds were dissolved in DMSO and then diluted with medium to achieve the required concentrations (final DMSO concentration < 1%, which is non-toxic to the parasite). Drugs were placed in 96-well flat-bottomed microplates starting from the concentration of 20 µg/mL and 8 serial two-fold dilutions were made. Asynchronous cultures with parasitaemia of 1–1.5% and 1% final hematocrit were aliquoted into the plates and incubated for 72 h at 37 °C. Parasite growth was determined spectrophotometrically (OD650) by measuring the activity of the parasite lactate dehydrogenase (pLDH), according to a modified version of the method of Makler in control and drug-treated cultures. The antimalarial activity is expressed as 50% inhibitory concentrations (IC50); […]

Molecules are shown by their SMILES.

Results on one molecule are retold here after article PMC7823712, “Synthesis and Antiplasmodial Activity of Novel Bioinspired Imidazolidinedione Derivatives” (Biomolecules, 2020).

`CCN(CC)CCCC(C)Nc1ccnc2cc(Cl)ccc12` (stereo not shown) [CQ, Chloroquine, reference compound]: the RI is reported as 13.44.
